Values of other authors as cited in article PMC11768433 (Viruses, 2024).
Where two headings read alike, the source gives them in different places.

Assays:
[1] = tested on: HIV-1(3 A, 13 B, 7 C, 1 G, 1 A/C, 5 A/E, 6 B/C pseudovirus subtypes); parameters: method as in Ref.30089693; settings: panel of HIV-1 pseudovirus subtypes, TZM-bl; ref Ref.30089693
[2] = tested on: T-20 sensitive HIV-1(NL4-3D36G); parameters: method as in Ref.30089693; settings: T-20 sensitive NL4-3D36G, TZM-bl; ref Ref.30089693
HIV-1 NL4-3 pseudovirus = tested on: HIV-1 NL4-3 pseudovirus; parameters: method as in Ref.30089693; settings: TZM-bl, ref Ref.30089693
HIV-1 JRCSF = tested on: HIV-1 JRCSF; parameters: method as in Ref.30089693; settings: HIV-1 JRCSF infection, TZM-bl; ref Ref.30089693
HIV-2(ROD,ST) [3] = tested on: HIV-2(ROD,ST); parameters: method as in Ref.30089693; settings: TZM-bl, ref Ref.30089693
HIV-1 HXB2 = tested on: HIV-1 HXB2; parameters: method as in Ref.30089693; settings: HIV-1 HXB2 cell-cell fusion, TZM-bl; ref Ref.30089693
SARS-CoV-2 = tested on: SARS-CoV-2; parameters: method as in Ref.35216177; settings: SARS-CoV-2 replication, Vero cells; ref Ref.35216177
[4] = tested on: influenza virus(H1N1,VR-1894); parameters: method as in Ref.35216177; settings: influenza H1N1 VR-1894 replication, MDKC cells; ref Ref.35216177
HIV-2(ROD,ST) [5] = tested on: HIV-2(ROD,ST); parameters: method as in Ref.30867304; settings: TZM-bl, range, ref Ref.30867304
HIV-1 pseudovirus = tested on: HIV-1 pseudovirus; parameters: method as in Ref.30867304; settings: HIV-1 pseudovirus infection, TZM-bl; ref Ref.30867304
[6] = tested on: T-20 sensitive HIV-1(NL4-3D36G); parameters: method as in Ref.30867304; settings: T-20 sensitive NL4-3D36G, TZM-bl; ref Ref.30867304
[7] = tested on: HIV-1(1A,2B,1C,1G,1A/C,1A/E,1B/C subtype); parameters: method as in Ref.30867304; settings: cell-cell fusion HEK293T / TZM-bl, HIV-1 subtypes; ref Ref.30867304
HIV-1 89.6(R5X4) = tested on: HIV-1 89.6(R5X4); parameters: method as in Ref.30867304; settings: HIV-1 89.6(R5X4) replication, TZM-bl; ref Ref.30867304
HIV-1 JR-CSF(R5) = tested on: HIV-1 JR-CSF(R5); parameters: method as in Ref.30867304; settings: HIV-1 JR-CSF(R5) replication, TZM-bl; ref Ref.30867304
[8] = tested on: Influenza A virus(A/Hong Kong/483/97 ([HK/483] strain H5N1))
[9] = tested on: Influenza A virus(A/Hong Kong/483/97 ([HK/483] strain H5N1)); remark: listed apart in the source
HIV-1 = tested on: HIV-1; parameters: method as in Ref.17448989; settings: HIV-1 infection, P4-CCR5 cells; ref Ref.17448989
HIV-1 integrase = molecular target: HIV-1 integrase; parameters: method as in Ref.12054767; settings: 3′-end processing catalyzed by HIV-1 integrase; ref Ref.12054767
HIV-1 Vif proteins = tested on: HIV-1 Vif proteins; parameters: method as in Ref.12480936; settings: Vif-Vif binding; ref Ref.12480936
HIV Pseudovirus (PsV) = tested on: HIV Pseudovirus (PsV); parameters: method as in Ref.26026377; settings: HIV PsV infection, CD4+ T cells; ref Ref.26026377
[10] = tested on: human immunodeficiency virus type 1 (HIV-1); parameters: method as in Ref.15780876; settings: HIV-1 infection, Vero P4-CCR5 cells; ref Ref.15780876

WEQKIEELLKKAEEQQKKNEEELKKLEX [DRAVPe00785]
IC50 [1]: 0.017 nM | IC50 [2]: < 0.01 nM | IC50 (HIV-1 NL4-3 pseudovirus): 0.004 nM | IC50 (HIV-1 JRCSF): 0.005 ± 0.001 nM | IC50 (HIV-2(ROD,ST) [3]): 0.06 to 0.34 nM | IC50 (HIV-1 HXB2): 0.013 ± 0.001 nM

FVPWFSKFlXRILC [DRAVPe00389, DRAVP database entry, TL peptide]
IC50 (SARS-CoV-2): 3180 nM | IC50 [4]: 5550 nM

WEQKIEELLKKAEEQQKKNEEELKKLEKX [DRAVPe00787]
IC50 (HIV-2(ROD,ST) [5]): 0.02 to 0.032 nM | IC50 (HIV-1 pseudovirus): 0.00291 nM | IC50 [6]: 0.002 nM | IC50 [7]: 0.00855 nM | IC50 (HIV-1 89.6(R5X4)): 0.00475 ± 0.00083 nM | IC50 (HIV-1 JR-CSF(R5)): 0.00454 ± 0.00142 nM

RRKKAAVALLPAVLLALLAP [DRAVPe01891]
IC50 [8]: 4500 nM | IC50 [9]: 8000 nM

KVINPEPIVEPFMSKPFALF [DRAVPe00230]
IC50 (HIV-1): > 100000 nM

FVPWFSKFlwRIL [DRAVPe00386, DRAVP database entry, TL peptide]
IC50 (SARS-CoV-2): 4070 nM

FVPWFSKFlPRIL [DRAVPe00378, DRAVP database entry, TL peptide]
IC50 (SARS-CoV-2): 4820 nM

LEAIPMSIPPEFLFGKPFVF [DRAVPe00223]
IC50 (HIV-1): 1340 ± 420 nM

QLLIRMI [DRAVPe00092, DRAVP database peptide, target HIV-1 integrase]
IC50 (HIV-1 integrase): > 200000 nM

FVPWFSKFlGRIL [DRAVPe00377, DRAVP database entry, TL peptide]
IC50 (SARS-CoV-2): 4620 nM

LFYLVPGPGH [DRAVPe00094, DRAVP database peptide, target HIV-1 integrase]
IC50 (HIV-1 integrase): > 200000 nM

LPLPAPSFHRTT [DRAVPe00128, DRAVP database peptide, target HIV-1 Vif proteins]
IC50 (HIV-1 Vif proteins): 4840 nM

FVPWFSKFlxRIL [DRAVPe00382, DRAVP database entry, TL peptide]
IC50 (SARS-CoV-2): 1000 nM

CGGFVPWFSKFlXRIL [DRAVPe00392, DRAVP database entry, TL peptide]
IC50 (SARS-CoV-2): 1020 nM | IC50 [4]: 6020 nM

YQLAIRMIYKNI [DRAVPe00098, DRAVP database peptide, target HIV-1 integrase]
IC50 (HIV-1 integrase): 14000 nM

LSELDDRADALQAGASQFETSAAKLKRKYWWKN [DRAVPe00111, DRAVP database peptide, target HIV-1 integrase]
IC50 (HIV-1 integrase): > 200000 nM

FVPWFSKFlkRIL [DRAVPe00384, DRAVP database entry, TL peptide]
IC50 (SARS-CoV-2): 4630 nM

IEELLKKAEEQQKKNEEELKKLEX [DRAVPe00660]
IC50 [1]: 0.035 nM | IC50 [2]: < 0.01 nM | IC50 (HIV-1 NL4-3 pseudovirus): 0.008 ± 0.003 nM | IC50 (HIV-1 JRCSF): 0.007 ± 0.002 nM | IC50 (HIV-2(ROD,ST) [3]): 0.23 to 0.75 nM | IC50 (HIV-1 HXB2): 0.014 ± 0.003 nM

LEAIPMSIPPEVKFNKPFVF [DRAVPe00192]
IC50 (HIV-1): 14800 ± 2560 nM

GLFKVLGSVAKHLLPHVAPVIAEKL [DRAVPe00356, DRAVP database peptide, target HIV]
IC50 (HIV Pseudovirus (PsV)): 2500 nM

LEAIPCSIPPCVFFNKPFVF [DRAVPe00221]
IC50 (HIV-1): 930 ± 50 nM

CFVPWFSKFlXRIL [DRAVPe00391, DRAVP database entry, TL peptide]
IC50 (SARS-CoV-2): 760 nM | IC50 [4]: 2550 nM

YQLLIRPIYKNI [DRAVPe00110, DRAVP database peptide, target HIV-1 integrase]
IC50 (HIV-1 integrase): > 200000 nM

QLLIRMIYKNILFYLVPGPGHGAEPERRNIKYL [DRAVPe00090, DRAVP database peptide, target HIV-1 integrase]
IC50 (HIV-1 integrase): 9000 nM

GLFSVLGAVAKHVLPHVVPVIAEKL [DRAVPe00355, DRAVP database peptide, target HIV]
IC50 (HIV Pseudovirus (PsV)): 2000 nM

LEAIPMGIPpEVXFNKPFVF [DRAVPe00228]
IC50 (HIV-1): 280 ± 80 nM

FVPWFSKFlpRIL [DRAVPe00379, DRAVP database entry, TL peptide]
IC50 (SARS-CoV-2): > 50000 nM | IC90 (SARS-CoV-2): > 50000 nM

GLLSVLGSVVKHVIPHVVPVIAEHL [DRAVPe00360, DRAVP database peptide, target HIV]
IC50 (HIV Pseudovirus (PsV)): 3000 nM

KPKQIKPPLPSV [DRAVPe00130, DRAVP database peptide, target HIV-1 Vif proteins]
IC50 (HIV-1 Vif proteins): 17400 nM

LEAIPCSIPpCFLFNKPFVF [DRAVPe00227]
IC50 (HIV-1): 200 ± 40 nM

YQALIRMIYKNI [DRAVPe00097, DRAVP database peptide, target HIV-1 integrase]
IC50 (HIV-1 integrase): 165000 nM

YTSLIHSLIEESQNQQEKNEQELLELDX [DRAVPe00782]
IC50 (HIV-1 NL4-3 pseudovirus): 0.392 ± 0.073 nM | IC50 (HIV-1 JRCSF): 0.384 ± 0.033 nM | IC50 (HIV-1 HXB2): 0.361 ± 0.06 nM

FVPWFSKFlXRIL [DRAVPe00396, DRAVP database entry, TL peptide]
IC50 (SARS-CoV-2): 770 nM | IC50 [4]: 4770 nM

QLLIRMIYKNI [DRAVPe00109, DRAVP database peptide, target HIV-1 integrase]
IC50 (HIV-1 integrase): 21000 nM

SNQGGSPLPRSV [DRAVPe00127, DRAVP database peptide, target HIV-1 Vif proteins]
IC50 (HIV-1 Vif proteins): 7430 nM

ALWMTLLKKVLKAAAKAALNAVLVGANA [DRAVPe01956, DRAVP database peptide, target HIV]
IC50 [10]: 2000 nM

YQLLIRMIYANI [DRAVPe00104, DRAVP database peptide, target HIV-1 integrase]
IC50 (HIV-1 integrase): 11000 nM

FVPWFSKFlWRIL [DRAVPe00385, DRAVP database entry, TL peptide]
IC50 (SARS-CoV-2): 880 nM

LEANIEELLKKAEEQQKKNEEELKKLEX [DRAVPe00784]
IC50 [2]: < 0.01 nM | IC50 (HIV-1 NL4-3 pseudovirus): 0.006 ± 0.001 nM | IC50 (HIV-1 JRCSF): 0.027 ± 0.005 nM | IC50 (HIV-2(ROD,ST) [3]): 0.09 to 0.84 nM | IC50 (HIV-1 HXB2): 0.021 ± 0.01 nM

ALWKTLLKKVLKAAAK [DRAVPe01957, DRAVP database peptide, target HIV]
IC50 [10]: 28000 nM

IEELIKKSEEQQKKNEEELKKLEX [DRAVPe00656]
IC50 [1]: 0.144 nM | IC50 (HIV-1 NL4-3 pseudovirus): 0.043 ± 0.009 nM | IC50 (HIV-1 JRCSF): 0.126 ± 0.063 nM | IC50 (HIV-1 HXB2): 0.085 ± 0.009 nM

LEAIPCSIPPCFAFNKPFVF [DRAVPe00222]
IC50 (HIV-1): 270 ± 40 nM

YTSLIEELIKKSEEQQKKNEEELKKLEX [DRAVPe00783]
IC50 [2]: < 0.01 nM | IC50 (HIV-1 NL4-3 pseudovirus): 0.007 ± 0.001 nM | IC50 (HIV-1 JRCSF): 0.023 ± 0.002 nM | IC50 (HIV-2(ROD,ST) [3]): 0.09 to 5.81 nM | IC50 (HIV-1 HXB2): 0.021 ± 0.003 nM

FVPWFSKFlXRILGGC [DRAVPe00390, DRAVP database entry, TL peptide]
IC50 (SARS-CoV-2): 12100 nM | IC50 [4]: 21100 nM

FVPWFSKFlKRIL [DRAVPe00383, DRAVP database entry, TL peptide]
IC50 (SARS-CoV-2): 880 nM

FVPWFSKFlXRIL [DRAVPe00380, DRAVP database entry, TL peptide]
IC50 (SARS-CoV-2): 6720 nM
